Pooled drug test results. Numbers come from NIAID ChemDB, via PubChem.

All rows: whole-cell or culture tests; organism: HIV-1; cells: MT-4; measure: EC95

ECn: concentration that inhibits the pathogen or its effect by n%. An empty or dashed field is not shown. Conditions beyond the fields shown may differ between rows.

smiles,strain,mutations,read by,result
O=C(N[C@H]1c2ccccc2OC[C@H]1O)[C@H](Cc1cccnc1)C[C@H](O)CN1CCN(Cc2ccn(-c3ccccc3)c2)C[C@H]1C(=O)NCC(F)(F)F,K-60C Clinical isolate,PR-L10I M46I I54V Q58E L63P I64V V77I V82F I84V L90M I93L,p24,0.031 µM
CC(C)CN(C[C@@H](O)[C@H](Cc1ccccc1)NC(=O)[C@H](CC(N)=O)NC(=O)c1ccc2ccccc2n1)C(=O)NC(C)(C)C,NL4-3,PR-L10R M46I V82T,p24,0.1 µM
O=C(N[C@H]1c2ccccc2OC[C@H]1O)[C@H](Cc1nnc(-c2ccccc2)o1)C[C@H](O)CN1CCN(Cc2ccc(-c3ccc(Cl)cc3)o2)C[C@H]1C(=O)NCC(F)(F)F,K-60 Clinical isolate,PR-L10I M46I I54V Q58E L63P I64V V77I V82F I84V L90M I93L,p24,≤0.008 µM
Cc1ccccc1-n1ccc(CN2CCN(C[C@@H](O)C[C@@H](Cc3cccnc3)C(=O)N[C@H]3c4ccccc4OC[C@H]3O)[C@H](C(=O)NCC(F)(F)F)C2)c1,NL4-3 WT,,p24,≤0.008 µM
Cc1nnc(C[C@H](C[C@H](O)CN2CCN(C(C)(C)c3ncc(-c4ccc(Cl)cc4)o3)C[C@H]2C(=O)NCC(F)(F)F)C(=O)N[C@H]2c3ccccc3OC[C@H]2O)o1,Q-60 Clinical isolate,PR-L10I N37S R41K M46I I54V I62V L63P A71V V77I V82A L90M I93L,p24,≤0.008 µM
O=C(N[C@H]1c2ccccc2OC[C@H]1O)[C@H](Cc1cccnc1)C[C@H](O)CN1CCN(Cc2ccn(-c3ccc(F)c(F)c3F)c2)C[C@H]1C(=O)NCC(F)(F)F,NL4-3 WT,,p24,≤0.008 µM
Cc1nnc(C[C@H](C[C@H](O)CN2CCN(Cc3ccc(-c4ccc(Cl)cc4)o3)C[C@H]2C(=O)NCC(F)(F)F)C(=O)N[C@H]2c3ccccc3OC[C@H]2O)o1,K-60 Clinical isolate,PR-L10I M46I I54V Q58E L63P I64V V77I V82F I84V L90M I93L,p24,0.031 µM
CCc1cc(NCc2nc3c(C)ccc(C)c3o2)c(=O)[nH]c1C,rA17,,p24,100 µM
COc1cncc(-c2cnc(C(C)(C)N3CCN(C[C@@H](O)C[C@@H](Cc4nnc(-c5ccccc5)o4)C(=O)N[C@H]4c5ccccc5OC[C@H]4O)[C@H](C(=O)NCC(F)(F)F)C3)o2)c1,Q-60 Clinical isolate,PR-L10I N37S R41K M46I I54V I62V L63P A71V V77I V82A L90M I93L,p24,0.5 µM
O=C(N[C@H]1c2ccccc2OC[C@H]1O)[C@H](Cc1cccnc1)C[C@H](O)CN1CCN(Cc2ccn(-c3cc(Cl)c(Cl)c(Cl)c3)c2)C[C@H]1C(=O)NCC(F)(F)F,V-18C Clinical isolate,PR-L10I M36I N37D M46I R57K L63P A71V G73S I84V L90M I93L,p24,0.015 µM
Cc1cc(C)c(-n2nnnc2SCC(=O)Nc2cccc(Cl)c2Cl)c(C)c1,,,p24,<10 µM
O=C(N[C@H]1c2ccccc2OC[C@H]1O)[C@H](Cc1cccnc1)C[C@H](O)CN1CCN(Cc2ccn(-c3ccccc3Cl)c2)C[C@H]1C(=O)NCC(F)(F)F,NL4-3 WT,,p24,≤0.008 µM
CC(C)c1ccccc1-n1nnnc1SCC(=O)Nc1ccccc1[N+](=O)[O-],,,p24,<10 µM
CC(C)(c1ncc(-c2ccc(Cl)cc2)o1)N1CCN(C[C@@H](O)C[C@@H](Cc2nnco2)C(=O)N[C@H]2c3ccccc3OC[C@H]2O)[C@H](C(=O)NCC(F)(F)F)C1,NL4-3 WT,,p24,0.125 µM
O=c1[nH]cnc2c1ncn2[C@H]1CC[C@@H](CO)O1,A17,,p24,6.25 µM
Cc1ccnc2c1NC(=O)c1cccnc1N2C1CC1,,RT-D67N K70R T215Y K219Q Y181C,,>3 µM
O=C1N(Cc2ccc(CO)cc2)[C@H](Cc2ccccc2)[C@H](O)[C@@H](O)[C@@H](Cc2ccccc2)N1Cc1ccc(CO)cc1,NL4-3,PR-L10R M46I,p24,0.2 µM
Cc1cccc(C)c1-n1nnnc1SCC(=O)Nc1ccccc1Cl,,,p24,<10 µM
Cc1ccc(-n2ccc(CN3CCN(C[C@@H](O)C[C@@H](Cc4cccnc4)C(=O)N[C@H]4c5ccccc5OC[C@H]4O)[C@H](C(=O)NCC(F)(F)F)C3)c2)cc1,Q-60C Clinical isolate,PR-L10I N37S R41K M46I I54V I62V L63P A71V V77I V82A L90M I93L,p24,≤0.008 µM
CC(=O)c1ccccc1NC(=O)CSc1nnnn1-c1c(C)cc(C)cc1C,,,p24,<10 µM
O=C(N[C@H]1c2ccccc2OC[C@H]1O)[C@H](Cc1cccnc1)C[C@H](O)CN1CCN(Cc2ccn(-c3ccc(Cl)cc3)c2)C[C@H]1C(=O)NCC(F)(F)F,V-18C Clinical isolate,PR-L10I M36I N37D M46I R57K L63P A71V G73S I84V L90M I93L,p24,≤0.008 µM
O=C(CSc1nnnn1-c1cccc2ccccc12)Nc1ccc(Cl)cc1[N+](=O)[O-],,,p24,<10 µM
O=C(N[C@H]1c2ccccc2OC[C@H]1O)[C@H](Cc1cccnc1)C[C@H](O)CN1CCN(Cc2ccn(-c3cccc(Cl)c3)c2)C[C@H]1C(=O)NCC(F)(F)F,K-60C Clinical isolate,PR-L10I M46I I54V Q58E L63P I64V V77I V82F I84V L90M I93L,p24,≤0.008 µM
CCCc1nnc(C[C@H](C[C@H](O)CN2CCN(C(C)(C)c3ncc(-c4ccc(Cl)cc4)o3)C[C@H]2C(=O)NCC(F)(F)F)C(=O)N[C@H]2c3ccccc3OC[C@H]2O)o1,Q-60 Clinical isolate,PR-L10I N37S R41K M46I I54V I62V L63P A71V V77I V82A L90M I93L,p24,≤0.008 µM
CC(C)=CCN1Cc2cccc3[nH]c(=S)n(c23)C[C@@H]1C,rHXB2,,p24,0.1 µM
Cc1cccc(-n2ccc(CN3CCN(C[C@@H](O)C[C@@H](Cc4cccnc4)C(=O)N[C@H]4c5ccccc5OC[C@H]4O)[C@H](C(=O)NCC(F)(F)F)C3)c2)c1,NL4-3 WT,,p24,≤0.008 µM
CCCc1nnc(C[C@H](C[C@H](O)CN2CCN(C(C)(C)c3ncc(-c4cncc(OC)c4)o3)C[C@H]2C(=O)NCC(F)(F)F)C(=O)N[C@H]2c3ccccc3OC[C@H]2O)o1,NL4-3 WT,,p24,0.5 µM

The first 2 rows once more:

smiles,strain,mutations,read by,result
O=C(N[C@H]1c2ccccc2OC[C@H]1O)[C@H](Cc1cccnc1)C[C@H](O)CN1CCN(Cc2ccn(-c3ccccc3)c2)C[C@H]1C(=O)NCC(F)(F)F,K-60C Clinical isolate,PR-L10I M46I I54V Q58E L63P I64V V77I V82F I84V L90M I93L,p24,0.031 µM
CC(C)CN(C[C@@H](O)[C@H](Cc1ccccc1)NC(=O)[C@H](CC(N)=O)NC(=O)c1ccc2ccccc2n1)C(=O)NC(C)(C)C,NL4-3,PR-L10R M46I V82T,p24,0.1 µM